# Data source: PubChem BioAssay AID504761 (Drosophila RNAi Screening Center, 2011)
# Purpose: 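Genome-wide fly cell screen for genes dengue virus requires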 (primary screen)
# Cell system: D.Mel-2 cells from Drosophila
# Reagent: long dsRNA against Drosophila genes
# Treatment: infection with dengue virus type 2; dose and infection time not stated
# Measurement: 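Per well on two replicate plates, imaging gave the percent of cells positive for viral envelope protein, ranked by infection, and a nuclear count of cells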
# Reading the numbers: infection score: higher = more virus-infected cells; cell count: higher = more cells in the well
# Rule for the call: 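Very low infection ranking in both replicate wells (chance probability at most 0.065), then a retest showing infection dropped 1.5-fold or more at p below 0.05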
# Meaning of the calls: active = confirmed: knock-down lowers infection; inactive = not picked or not confirmed
# In all, the deposit lists about 22,000 reagents; shown is a random part of those that have a named target and a result. Over the whole deposit, 116 (0.52%) were called active. 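Calls depend on retest data that are not deposited; infection was ranked per plate without normalising between plates; the unit of the infection score is not given.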 The raw values are shown without normalisation. A number with no mark means an inactive call. Names joined by + are all predicted targets of the reagent. Not stated in the record: the amount of reagent, the time to read-out.
Target gene,dsRNA,"infection score, replicate 1","infection score, replicate 2","cell count, replicate 1","cell count, replicate 2"
CG32085,DRSC10138,3.22,3.72,5876,6052
CG32085,DRSC10139,4.78,9.46,5855,6376
CG32085,DRSC10576,1.67,2.09,5763,6175
trbd (trabid),DRSC16494,8.97,2.93,3480,6563
trbd (trabid),DRSC27999,33.3,7.62,5770,6195
CG3746,DRSC04412,12,6.32,6718,6808
CG3746,DRSC30050,17.3,20.6,5407,2672
COX6B (Cytochrome c oxidase subunit 6B),DRSC19590,1.87,1.93,5679,5691
COX6B (Cytochrome c oxidase subunit 6B),DRSC27409,9.34,9.49,5912,5445
babo (baboon),DRSC07581,,5.16,481,814
Art3 (Arginine methyltransferase 3),DRSC16065,13.8,10.1,6378,6363
Clc (Clathrin light chain),DRSC11116,8.49,6.52,5338,6897
Clc (Clathrin light chain),DRSC25617,4.33,3.72,5248,5545
CG14315,DRSC14794,2.67,1.95,7032,6906
ear (ENL/AF9-related),DRSC15675,20.6,27.9,5592,5807
ear (ENL/AF9-related),DRSC24291,4.48,5.9,7146,6879
ovm + CG31975,DRSC22146,2.81,26.6,6685,5450
CG33474,DRSC05218,7.86,6.64,5486,5409
CG42748,DRSC03712,7.67,5.56,6507,6577
CG42748,DRSC03713,11.2,26.3,6480,5658
CG42748,DRSC03734,20.2,6.13,5916,2578
CG42748,DRSC28935,11.9,7.4,4497,2418
Plod (procollagen lysyl hydroxylase),DRSC10601,5.24,2.3,6837,7100
Plod (procollagen lysyl hydroxylase),DRSC10602,1.9,2.11,5780,6151

2 entries from above, reformatted.
{"Target gene":"CG32085","dsRNA":"DRSC10139","infection score, replicate 1":4.78,"infection score, replicate 2":9.46,"cell count, replicate 1":5855,"cell count, replicate 2":6376}
{"Target gene":"CG32085","dsRNA":"DRSC10576","infection score, replicate 1":1.67,"infection score, replicate 2":2.09,"cell count, replicate 1":5763,"cell count, replicate 2":6175}
